{
  "source": "patent US20070134261A1",
  "about": "“Effectors of innate immunity” (priority 2001, published 2007)",
  "test_system": "human PBMCs",
  "experiment": "IL-6 and MCP-3 release from human PBMCs (ELISA, Example 15)",
  "type": "cell-based",
  "details": "pre-incubation with inhibitor",
  "data": [
    {"substance": "pertussis toxin", "values": [
      {"measurement": "MCP-3 production from combined LL-37 and IL-1β", "value": "dramatically inhibited"}
    ]}
  ]
}
